PubChem BioAssay AID1259414 | Drosophila RNAi Screening Center, 2018
In all, the deposit lists about 24,000 reagents; shown is a random part of those that have a named target and a result. Of all reagents, about 1,210 (5%) are marked active. 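Inactive calls also include excluded dsRNAs with several or no targets, genes unexpressed in JW18, and well A1, regardless of score.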 The numbers tell different reagents against one gene apart.

Purpose: 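Genome-wide screen for host control of endosymbiont load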 (primary screen)
Cell system: Drosophila JW18 cells infected with Wolbachia
Reagent: long dsRNA against Drosophila genes, 0.25 µg dsRNA per well of a 384-well plate
Time to read-out: 5 days
Conditions: cells persistently infected with Wolbachia before knock-down; no added drug
Detection: 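Imaged fluorescence in situ signal for Wolbachia 23S rRNA per DAPI-counted host cell, given as a robust z-score within each plate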
Reading the numbers: Wolbachia per cell robust z: higher = more Wolbachia per host cell than the plate typical
Hit rule: 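Active if absolute robust z reaches 1.5 in two or more of three replicates, leaving out multi- or no-target dsRNAs, genes unexpressed in JW18 and A1 wells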

target gene,reagent no.,"Wolbachia per cell robust z, rep 1","Wolbachia per cell robust z, rep 2","Wolbachia per cell robust z, rep 3",Outcome
CG34437,1,-1.31,-5.41,0.271,inactive
Tango2 (Transport and Golgi organization 2),1,-0.269,-6.22,0.539,inactive
Tango2 (Transport and Golgi organization 2),2,-1.03,-0.416,-0.206,inactive
CG7460,1,0.123,-0.824,-0.876,inactive
CG7460,2,-0.932,-0.305,-0.927,inactive
MED1 (Mediator complex subunit 1),1,-1.72,-0.0499,0.195,inactive
CG14257,1,0.207,-2.54,-1.13,inactive
CG14257,2,-0.76,-0.34,-0.307,inactive
CG18418,1,-3.34,1.38,-0.276,inactive
CG18418,2,-1.68,1.53,-0.536,inactive
uif (uninflatable),1,-1.14,-0.501,-0.439,inactive
t-cup (tetleys-cup),1,-0.859,-0.47,-0.148,inactive
t-cup (tetleys-cup),2,-1.49,-1.88,-0.635,inactive
msn (misshapen),1,1.91,-0.999,0.671,inactive
msn (misshapen),2,-0.718,0.148,-0.515,inactive
msn (misshapen),3,-2.2,-0.562,-1.27,inactive
msn (misshapen),4,0.469,0.459,1.15,inactive

The list goes on; the last 2 above are carried over.
target gene,reagent no.,"Wolbachia per cell robust z, rep 1","Wolbachia per cell robust z, rep 2","Wolbachia per cell robust z, rep 3",Outcome
msn (misshapen),3,-2.2,-0.562,-1.27,inactive
msn (misshapen),4,0.469,0.459,1.15,inactive
CG1105,1,-4.01,0.198,-0.0948,inactive
CG1105,2,-2.36,-2.04,-1.99,active
CG32643,1,0.596,-0.231,0.933,inactive
CG33217,1,0.787,1.16,1.2,inactive
CG33217,2,-0.465,0.443,-0.506,inactive
CG14086,1,-0.823,-0.41,-2.12,inactive
TyrRII (Tyramine receptor II),1,0.786,1.36,-0.218,inactive
TyrRII (Tyramine receptor II),2,0.288,0.23,1.02,inactive
GstD5 (Glutathione S transferase D5),1,0.754,-1.2,-3.31,inactive
GstD5 (Glutathione S transferase D5),2,-2.14,-2.54,-1.03,active
DIP-theta (Dpr-interacting protein theta),1,1.37,0.249,1.02,inactive
DIP-theta (Dpr-interacting protein theta),2,-0.656,-1.44,-1.72,inactive
